Article PMC11125953 (Viruses, 2024)

Tested on: E. Derm cells infected with EHV-4 405/76
Experiment: Transcriptomic analysis
Format: cell-based, Equus caballus
Settings: 25 µM DTB, MOI 2, 18 hpi

## Nc1ncn([C@H]2C[C@H](O)[C@@H](CO)O2)c(=O)n1 [Decitabine]
  number of down-regulated DEGs, EHV-4+DTB vs EHV-4: 25
  number of up-regulated DEGs, EHV-4+DTB vs EHV-4: 94
|Log2(FC)| > 1, adjusted p < 0.05
  number of DEGs, EHV-4+DTB vs EHV-4: 119
